Measured values from several laboratories, pooled; numbers as filed in NIAID ChemDB.

Common to all: tests in culture; organism: Hepatitis B virus; endpoint: EC50

An empty or dashed field is not shown. ECn: concentration that inhibits the pathogen or its effect by n%. a–b is a range or a potency band. Rows are shuffled and stem from different studies.

structure,cells,strain,method,value
CN1CCN(Cc2ccc(-c3ccc4ncnc(Nc5ccc(N6CCOCC6)cc5)c4c3)o2)CC1,HUH 9B,,replicon,1–5 µM
CN1[C@H](C(=O)Nc2ccc(F)c(Cl)c2)C[C@H](c2ncc(-c3cn(C)cn3)s2)NS1(=O)=O,PHH,Genotype D,fluorescence,0.041 µM
CC(C)(C)Oc1ccc(-n2c(C(=O)NCc3ccccc3)c3n(c2=O)CCN(C(=O)c2ccc(Br)c(Cl)c2)C3)cc1,HepG2.117,,PCR,0.1–0.5 µM
COCCCOc1cc2c(cc1Cl)-c1c(cc(C(=O)O)c(=O)n1C1CC1)C(C1(C)COC1)S2,Primary human hepatocytes,,antigen / visual reading / absorbance,0.1–0.5 µM
Brc1ccc2ncnc(Nc3ccc(N4CCOCC4)cc3)c2c1,HUH 9B,,replicon,1–5 µM
O=C(NCc1ccccc1-c1cccnn1)c1c2n(c(=O)n1-c1ccc(OCC(F)(F)F)cc1)CCN(C(=O)c1ccc(Br)c(Cl)c1)C2,HepG2.117,,PCR,<0.1 µM
COCCCOc1cc2c(cc1Cl)-c1c(cc(C(=O)O)c(=O)n1C1CCC1)C(C)S2,Primary human hepatocytes,,antigen / visual reading / absorbance,0.1–0.5 µM
Cn1ncc(NS(=O)(=O)c2ccc3c(C(=O)Nc4ccc(F)c(Cl)c4)n(C)nc3c2)c1F,HepAD38,,PCR,100–1000 µM
N#Cc1cc(C(=O)N2CCn3c(c(C(=O)NCc4ccccc4-c4cccnn4)n(-c4ccc(OC5CC5)cc4)c3=O)C2)ccc1Br,HepG2.117,,PCR,0.1–0.5 µM
Cc1n[nH]nc1-c1ccc(-n2c(=O)c3c(n4ncc(CC(C)C)c24)CN(C(=O)c2ccc(Br)c(C(F)(F)F)c2)[C@H](C)C3)cc1,HepG2.117,,luminescence,≤0.05 µM
Cn1nc2ccc(NC(=O)OCc3cccc(F)c3)cc2c1C(=O)Nc1ccc(F)c(Cl)c1,HepAD38,,PCR,>1000 µM
CNC(=O)c1ccc(-n2c(=O)c3c(n4ncc(CC5CC5)c24)CN(C(=O)c2ccc(Br)c(C(F)(F)F)c2)[C@@H](C)C3)cc1,HepG2.117,,luminescence,0.05–0.5 µM
Cc1ccc(CNC(=O)c2ccc3ncnc(Nc4ccc(N5CCOCC5)cc4)c3c2)cc1,HUH 9B,,replicon,1–5 µM
N#Cc1cc(NC(=O)N2CCc3nn4c(c3C2)C(F)(F)CCC(F)(CO)C4)ccc1F,HepG2.2.15,,fluorescence,0.005 µM
C[C@H](NC(=O)C1C2CN(C(=O)c3ccc(Br)c(Cl)c3)CCN2C(=O)N1c1ccc(OC2COC2)cc1)c1ccccc1,HepG2.117,,PCR,0.5–5 µM
C[C@@H]1Cc2c(n3ncc(CC4CCC4)c3n(-c3ccc(-c4nncn4C)cc3)c2=O)CN1C(=O)c1ccc(Br)c(Cl)c1,HepG2.117,,luminescence,≤0.05 µM
COCCCOc1cc2c(cc1Cl)-c1c(cc(C(=O)O)c(=O)n1C1CCC1)CS2(=O)=O,Primary human hepatocytes,,antigen / visual reading / absorbance,0.05–0.1 µM
C[C@@H](NS(=O)(=O)Nc1ccc2c(C(=O)Nc3ccc(F)c(Cl)c3)n(C)nc2c1)c1ccccn1,HepAD38,,PCR,100–1000 µM
CC(C)(C)OC(=O)NCc1cccc(-c2ccc3ncnc(Nc4ccc(N5CCOCC5)cc4)c3c2)c1,HUH 9B,,replicon,1–5 µM
CCC1c2cc(C(=O)O)c(=O)n(C3CC3)c2-c2cc(Cl)c(OCCCOC)cc2S1(=O)=O,Primary human hepatocytes,,antigen / visual reading / absorbance,>0.5 µM
N#CC[C@]1(O)CCC(F)(F)c2c3c(nn2C1)CCN(C(=O)Nc1ccc(F)c(C#N)c1)C3,HepG2.2.15,,fluorescence,0.016 µM
C[C@H]1Cn2c(c(C(=O)NCc3ccccc3-n3ccc(F)n3)n(-c3ccc(OC4CC4)cc3)c2=O)CN1C(=O)c1ccc(Br)c(Cl)c1,HepG2.117,,PCR,<0.1 µM
CCOC(=O)c1cccc(NC(=O)c2ccc3ncnc(Nc4ccc(N5CCOCC5)cc4)c3c2)c1,HUH 9B,,replicon,1–5 µM
COCCCOc1cc2c(cc1C)-c1c(cc(C(=O)O)c(=O)n1C1CC1)C(C)S2(=O)=O,Primary human hepatocytes,,antigen / visual reading / absorbance,0.1–0.5 µM
C#C[C@]1(O)CCC(F)(F)c2c3c(nn2C1)CCN(C(=O)Nc1ccnc(Br)c1F)C3,HepG2.2.15,,fluorescence,0.199 µM
Cc1cnn(-c2ccc(-n3c(=O)c4c(n5ncc(CC(C)C)c35)CN(C(=O)c3ccc(Br)c(C(F)(F)F)c3)[C@H](C)C4)cc2)n1,HepG2.117,,luminescence,≤0.05 µM
COc1ccc(CNC(=O)c2c3n(c(=O)n2-c2ccccc2)CCN(C(=O)c2ccc(Br)c(Cl)c2)C3)c(C)c1,HepG2.117,,PCR,0.1–0.5 µM
Cn1cnc(S(=O)(=O)Nc2ccc3c(C(=O)Nc4ccc(F)c(Cl)c4)n(C)nc3c2)c1,HepAD38,,PCR,<100 µM
C[C@H]1Cc2c(n3ncc(Cc4ccccc4)c3n(-c3ccc(-c4noc(=O)n4C)cc3)c2=O)CN1C(=O)c1ccc(Br)c(C(F)(F)F)c1,HepG2.117,,luminescence,0.05–0.5 µM
CC(C)Oc1ccc(-n2c(C(=O)N[C@@H](C)c3ccccc3)c3n(c2=O)CCN(C(=O)c2ccc(Cl)c(Cl)c2)C3)cc1,HepG2.117,,PCR,0.5–5 µM
Nc1nc(=O)c2ncn([C@@H]3O[C@H](CO)[C@@H](O)[C@H]3O)c2c(=O)[nH]1,2.2.15,,antigen,<10 µM
Cn1nc2cc(NS(=O)(=O)[C@]34CC[C@H](CC3=O)C4(C)C)ccc2c1C(=O)Nc1ccc(F)c(Cl)c1,HepAD38,,PCR,100–1000 µM
Clc1ccc2ncnc(Nc3ccc(N4CCOCC4)cc3)c2c1,HUH 9B,,replicon,1–5 µM
C[C@@H]1Cn2c(c(C(=O)N[C@H](C)c3ccccc3F)n(-c3ccc(OC4CC4)cc3)c2=O)CN1C(=O)c1ccc(Br)c(Cl)c1,HepG2.117,,PCR,0.5–5 µM
C[C@@H]1Cc2c(n3ncc(Cc4ccccc4)c3n(-c3ccc(-c4noc(=O)n4C)cc3)c2=O)CN1C(=O)c1ccc(Br)c(C(F)(F)F)c1,HepG2.117,,luminescence,≤0.05 µM
CC(C)Oc1cc2c(cc1Cl)-c1c(cc(C(=O)O)c(=O)n1C1CC1)C(C)S2(=O)=O,Primary human hepatocytes,,antigen / visual reading / absorbance,0.1–0.5 µM
Cn1nc2cc(NS(=O)(=O)c3cnn(Cc4ccccc4)c3)ccc2c1C(=O)Nc1ccc(F)c(Cl)c1,HepAD38,,PCR,100–1000 µM
Cc1n[nH]nc1-c1ccc(-n2c(=O)c3c(n4ncc(Cc5ccccc5)c24)CN(C(=O)c2ccc(Br)c(C(F)(F)F)c2)[C@H](C)C3)cc1,HepG2.117,,luminescence,≤0.05 µM
Ic1ccc2ncnc(Nc3ccc(N4CCOCC4)cc3)c2c1,HUH 9B,,replicon,<1 µM
CCc1cc2c(cc1OCCCOC)S(=O)(=O)C(C)c1cc(C(=O)O)c(=O)n(C3CC3)c1-2,Primary human hepatocytes,,antigen / visual reading / absorbance,>0.1 µM

5 of the rows above, restated:

structure | cells | strain | method | value
COCCCOc1cc2c(cc1Cl)-c1c(cc(C(=O)O)c(=O)n1C1CCC1)C(C)S2 | Primary human hepatocytes |  | antigen / visual reading / absorbance | 0.1–0.5 µM
Brc1ccc2ncnc(Nc3ccc(N4CCOCC4)cc3)c2c1 | HUH 9B |  | replicon | 1–5 µM
C[C@@H]1Cn2c(c(C(=O)N[C@H](C)c3ccccc3F)n(-c3ccc(OC4CC4)cc3)c2=O)CN1C(=O)c1ccc(Br)c(Cl)c1 | HepG2.117 |  | PCR | 0.5–5 µM
C[C@@H](NS(=O)(=O)Nc1ccc2c(C(=O)Nc3ccc(F)c(Cl)c3)n(C)nc2c1)c1ccccn1 | HepAD38 |  | PCR | 100–1000 µM
C#C[C@]1(O)CCC(F)(F)c2c3c(nn2C1)CCN(C(=O)Nc1ccnc(Br)c1F)C3 | HepG2.2.15 |  | fluorescence | 0.199 µM